# Results of single-concentration screens

From ChEMBL document CHEMBL3988442, “University of Dundee, Small-Polar-MMV Screening Library” (2021).

Mtb glucose medium: 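Phenotypic screen: M. tuberculosis growth, glucose 7H9 medium, 3 days; the read-out is not stated. Concentration: 50 µM. The record gives no direction; compounds that gave an IC50 in retests scored well above the rest, so higher reads as more growth inhibition. Size under these conditions: about 69,000 compounds, about 760 of them at 50% or above in at least one test.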
Mtb cholesterol medium: 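Phenotypic screen: M. tuberculosis growth, cholesterol and DPPC medium, 4 days; the read-out is not stated. Compounds at 50 µM. Direction is inferred from retests: higher values go with more growth inhibition. About 69,000 compounds were tested under these conditions; 0.54% (about 370) showed 50% or more at least once.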

Each number is a percent effect as filed.
The controls that fix the scale are not given in the record; negative values are as filed.
Many other results are left out here, so strong results are more common than in the screen.
Two or more numbers in one place are separate tests of the same structure; such repeats can differ widely.
A dash means the value is not listed here; it may have been measured.

{"compound": "Cc1nc(C)n(CC2CCCCN2CC(=O)Nc2nncs2)n1", "stereo": "stereo not drawn", "Mtb glucose medium": 5.844}
{"compound": "FC(F)(F)c1ccc2nc([C@H]3CCN(C4CCCCC4)C3)[nH]c2c1", "Mtb glucose medium": "64.45 & 35.57", "Mtb cholesterol medium": 54.09}
{"compound": "c1ccc(C2CN(C3CC3)CC3(CCN(Cc4cscn4)CC3)C2)cc1", "stereo": "stereo not drawn", "Mtb glucose medium": "66.67 & 48.16", "Mtb cholesterol medium": 50.74}
{"compound": "OC1(CN2CCCC2)CCCN(Cc2ccc(F)cc2Cl)C1", "stereo": "stereo not drawn", "Mtb glucose medium": 58.85}
{"compound": "O=C(NCC(O)c1ccc(F)cc1F)c1ccccc1F", "stereo": "stereo not drawn", "Mtb glucose medium": 7.926}
{"compound": "Br.Cc1ccc(OCCSC2=NCCN2)cc1", "Mtb glucose medium": 54.19}
{"compound": "NC(=O)NC(=O)CCN1CCC(C(=O)c2cc(F)ccc2F)CC1", "Mtb glucose medium": 1.068, "Mtb cholesterol medium": -13.58}
{"compound": "CC(C)Cc1cc(NC(=O)c2ccccc2)n(C)n1", "Mtb glucose medium": 52.67}
{"compound": "CN(Cc1ccccc1)CC(O)Cn1cnc2sccc2c1=O", "stereo": "stereo not drawn", "Mtb glucose medium": 12.42}
{"compound": "CNC(=O)c1sc(C2CCCC2)nc1C", "Mtb glucose medium": 10.88, "Mtb cholesterol medium": 2.693}
{"compound": "Cc1nc(CNC2CCc3nc(C(C)C)nn3C2)oc1C", "stereo": "stereo not drawn", "Mtb cholesterol medium": 6.177}
{"compound": "CC(C)(C)CC(=O)N1CCC(c2nn(CCN)c3nccnc23)C1", "stereo": "stereo not drawn", "Mtb cholesterol medium": -4.648}
{"compound": "Cc1ccc2cc(C(=O)N3CCS(=O)(=O)CC3)[nH]c2c1", "Mtb glucose medium": -2.055, "Mtb cholesterol medium": -1.06}
{"compound": "c1nc2c(c(N3CCOC(Cn4cncn4)C3)n1)CCC2", "stereo": "stereo not drawn", "Mtb glucose medium": "-1.978 & 9.557"}
{"compound": "Fc1ccc(Cn2ncc3c2CN(c2noc(C4CC4)n2)C3)cc1", "Mtb cholesterol medium": "59.35 & 22.95"}
{"compound": "Fc1cccc(CN2CCC[C@H](Cn3nnc(-c4ccccn4)n3)C2)c1", "Mtb glucose medium": 8.117, "Mtb cholesterol medium": "-24.66 & -18"}
{"compound": "CCc1nn(C)c(Cl)c1CN1CCN(c2ccc(Cl)nn2)CC1", "Mtb glucose medium": "6.785 & -17.61"}
{"compound": "Cn1nnc(NCc2ccc(OCc3ccc(Cl)cc3)cc2)n1", "Mtb glucose medium": 14.09, "Mtb cholesterol medium": 10.47}
{"compound": "COc1cc(S(=O)(=O)N2C[C@@H](C)[C@@](C)(O)C2)c(C)cc1C", "Mtb glucose medium": 5.143}
{"compound": "Cc1ncnc2c1CCN(C(=O)c1ccsc1)CC2", "Mtb cholesterol medium": -13.28}
{"compound": "CC(=O)Nc1ccc(CN2CCCC(c3cc4ncccc4[nH]3)C2)cc1", "stereo": "stereo not drawn", "Mtb cholesterol medium": "4.881 & -3.235"}
{"compound": "COc1ncc(C)cc1NC(=O)COc1ccccc1F", "Mtb glucose medium": "-2.139 & 0.2997", "Mtb cholesterol medium": -6.366}
{"compound": "Cc1cc(N2CCCC(c3[nH]ncc3Cc3ccccc3)C2)nc(N)n1", "stereo": "stereo not drawn", "Mtb glucose medium": 56.2}
{"compound": "Cc1cccc(CNC(CN2CCN(C)CC2)c2ccccc2)c1", "stereo": "stereo not drawn", "Mtb glucose medium": 53.18}
{"compound": "Cn1c(CNCC2CCCN2c2cccnn2)nc2ccccc21", "stereo": "stereo not drawn", "Mtb glucose medium": 26.99}
{"compound": "COc1ccccc1C(=O)N1CCOC2(CCCN(C(C)=O)C2)C1", "stereo": "stereo not drawn", "Mtb cholesterol medium": "-3.238 & 9.51"}
{"compound": "Cc1cc(Cc2ccc(F)cc2)cc(C2CCCNC2)n1", "stereo": "stereo not drawn", "Mtb glucose medium": 12.07}
{"compound": "OCCN(Cc1ccccc1)Cc1nc(-c2ccc3c(c2)OCO3)no1", "Mtb glucose medium": 7.536}
{"compound": "Cc1nc(COCc2cnc3n2CCN(C2CCC2)C3C)cs1.O=C(O)C(F)(F)F", "stereo": "stereo not drawn", "Mtb glucose medium": 27.19}
{"compound": "OCCN(Cc1nc(-c2ccc3c(c2)OCO3)no1)Cc1cccs1", "Mtb glucose medium": 21.07}
{"compound": "CN1CCC(Nc2ccc(F)cc2OCC(F)(F)F)C1=O", "stereo": "stereo not drawn", "Mtb glucose medium": 9.636}
{"compound": "OCC(O)CSCc1nnc(-c2ccc(Cl)cc2)o1", "stereo": "stereo not drawn", "Mtb glucose medium": 27.1, "Mtb cholesterol medium": 7.999}
{"compound": "CC(O)CNCc1ccccc1C(F)(F)F.Cl", "stereo": "stereo not drawn", "Mtb glucose medium": 55.63}
{"compound": "C=Cc1ccc(C(=O)N2CCCC(Nc3ccc(F)c(F)c3)C2)cc1", "stereo": "stereo not drawn", "Mtb cholesterol medium": "50.5 & 32.52"}
{"compound": "CS(=O)(=O)N1CCC(Nc2ccc(C#N)c(C(F)(F)F)c2)CC1", "Mtb glucose medium": -9.92, "Mtb cholesterol medium": 7.071}
{"compound": "CNC(=O)c1c(C)cccc1NCc1nnc(C2CC2)o1", "Mtb cholesterol medium": -7.167}
{"compound": "O=C(Nc1cccnc1)N1CCC(n2ccc(C(F)(F)F)n2)CC1", "Mtb glucose medium": "52.72 & 39.35"}
{"compound": "CCn1ccnc1CN(C)C(C(=O)O)c1ccc(C(C)(C)C#N)cc1", "stereo": "stereo not drawn", "Mtb glucose medium": 32.18}
{"compound": "CCc1[nH]c2c(CNc3nccc(N)n3)cc(F)cc2c1C", "Mtb glucose medium": 44.65, "Mtb cholesterol medium": 17.4}
{"compound": "COc1cc(OC)cc(C(=O)NCCCNc2ncccn2)c1", "Mtb glucose medium": 2.247}
{"compound": "CSC1=Nc2c(cnn2-c2ccccc2)C2=NCCCN12", "Mtb cholesterol medium": 22.85}

3 of the entries, repeated:

compound,Mtb glucose medium,Mtb cholesterol medium
Br.Cc1ccc(OCCSC2=NCCN2)cc1,54.19,-
COc1cc(S(=O)(=O)N2C[C@@H](C)[C@@](C)(O)C2)c(C)cc1C,5.143,-
CC(C)(C)CC(=O)N1CCC(c2nn(CCN)c3nccnc23)C1 (stereo not drawn),-,-4.648